Test results as given in PMC8593684.
For at least one entry, the source does not settle the construct or the ends of the probe.

Chains of the proteins cited; added tags and fusions are not shown. Lines headed by an entry give the natural chain unless they say otherwise; changes in a name come on top.
UniProt P03211: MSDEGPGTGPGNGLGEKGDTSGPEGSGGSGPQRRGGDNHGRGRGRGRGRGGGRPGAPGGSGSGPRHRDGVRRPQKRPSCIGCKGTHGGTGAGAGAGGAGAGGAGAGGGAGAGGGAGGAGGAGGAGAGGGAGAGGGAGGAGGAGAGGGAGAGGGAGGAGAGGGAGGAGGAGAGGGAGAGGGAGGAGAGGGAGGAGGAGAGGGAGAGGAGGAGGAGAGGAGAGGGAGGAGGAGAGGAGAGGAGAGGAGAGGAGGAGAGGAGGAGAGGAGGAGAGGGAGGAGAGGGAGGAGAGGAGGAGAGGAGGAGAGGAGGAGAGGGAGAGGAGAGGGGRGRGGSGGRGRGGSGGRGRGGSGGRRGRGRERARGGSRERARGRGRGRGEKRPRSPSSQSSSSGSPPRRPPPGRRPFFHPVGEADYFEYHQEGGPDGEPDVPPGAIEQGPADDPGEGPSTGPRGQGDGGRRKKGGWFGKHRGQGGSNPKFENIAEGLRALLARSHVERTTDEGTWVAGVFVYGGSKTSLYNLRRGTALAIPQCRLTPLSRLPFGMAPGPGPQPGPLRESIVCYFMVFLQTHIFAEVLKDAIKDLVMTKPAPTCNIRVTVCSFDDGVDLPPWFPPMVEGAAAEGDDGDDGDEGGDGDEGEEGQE

Biological target: EBNA1 (Epstein-Barr virus) (UniProt P03211)
Experiment: EMSA
Settings: 1.5 and 6 ug EBNA1, poly(dI.dC), 20 mM HEPES ([…], 20 ul, room temperature, 30 min, commercial protein, label: IR700

Sequence | binding result
CCCTTTTGACAGTATGAGCTTCTAAACCC (double strand) [c-Myc site 2] | binds
CCCTTTTGGAAGCATCTGCTTAAACCC (double strand) [ULBP1 site 1] | binds
CCCTTTTGGTAACCTCTCCTTCCAAACCC (double strand) [c-Myc site 1] | binds
CCCTTTTAACAGCATTTCCTACCAAACCC (double strand) [ULBP1 site 2] | binds
CCCTTTTGGAAATACGTCCTACCAAACCC (double strand) [Positive control (EBV Rep* site 1)] | binds
